Article PMC8686763, “Pre-Steady-State Kinetics of the SARS-CoV-2 Main Protease as a Powerful Tool for Antiviral Drug Discovery” (Frontiers in Pharmacology, 2021)

Assays:
WT M^pro = WT M^pro (Severe acute respiratory syndrome coronavirus 2, UniProt P0DTD1); assay type: biochemical
SARS-CoV-2 M^pro = SARS-CoV-2 M^pro (Severe acute respiratory syndrome coronavirus 2, UniProt P0DTD1); details: read-out: M^pro IC50; cited from earlier work

Substance: Thimerosal
- relative efficacy of M^pro inhibition (in words) (WT M^pro): lowest activity tier
- IC50 (SARS-CoV-2 M^pro): 0.6 µM
